Results of unrelated studies side by side (data: NIAID ChemDB).

Shared fields: growth or infection tests; agent: Rhinovirus; endpoint: EC50

Rows are shuffled and stem from different studies.

SMILES | cells | strain or isolate | method | value
C#CC[C@H](CC(=O)c1ccc(-c2ccccc2C(F)(F)F)[nH]1)C(=O)N[C@H](/C=C/C(=O)OCC)C[C@@H]1CCNC1=O | H1-HELA | Serotype 14 | XTT | 0.17 µM
Nc1ccn([C@@H]2C[C@@H](O)[C@H](CO)O2)c(=O)n1 | KB | TYPE 5 |  | >100 µM
c1ccc2c(c1)oc1ccccc12 | HELA-H1 | TYPE 14 | cytopathic effect | >200 µM
CCOc1cc(O)c(C(=O)/C=C/c2ccc(OC)cc2)c(OC)c1 | HeLa | TYPE 2 | cytopathic effect | 0.001–0.002 µg/mL
CCOC(=O)/C=C/[C@H](CCC(N)=O)NC(=O)[C@H](Cc1ccc(F)cc1)NC(=O)[C@H](CC(C)C)NC(=O)OCc1ccccc1 |  |  |  | 0.54 µM
CCO/N=C/c1ccc(OCCC2CCN(c3ccc(C)nn3)CC2)cc1 | MRC-5 | TYPE 2 | cytopathic effect / visual reading | 0.0002 µg/mL
NC(=O)c1nc(F)c[nH]c1=O | HeLa |  | plaque count | 23 µg/mL
O=Cc1ccc(OCCC2CCN(c3ccc(Cl)nn3)CC2)cc1 | KB | TYPE 1A | cytopathic effect / visual reading | 12.06 µg/mL
Cc1cc(O)c2c(c1)C(=O)c1cccc(O)c1C2=O | HEL | TYPE 2 | cytopathic effect | >25 µg/mL
Nc1ncnc2c1ncn2[C@@H]1C[C@@H](O)[C@H](CO)O1 | KB | TYPE 5 |  | >100 µM
C#CC[C@@H](C(=O)N[C@H](/C=C/C(=O)OCC)C[C@@H]1CCNC1=O)n1cccc(NC(=O)c2cc(C)on2)c1=O | H1-HELA | Serotype 52 | cytopathic effect / XTT | 0.007 µM
CCO/N=C/c1ccc(OCCC2CCN(c3ccc(C)nn3)CC2)cc1 | KB | FO2-2317 (ICAM-1 receptor group 68) | neutral red | 0.038 µM
CC(=O)NC[C@@H](C=O)NC(=O)[C@H](Cc1ccccc1)NC(=O)[C@H](CC(C)C)NC(=O)OCc1ccccc1 | H1-HELA | TYPE 14 |  | 2.4 µM
O=C1O[C@H]([C@@H](O)CO)C(O)=C1O | HeLa |  |  | <3.1 µg/mL
CC(C)S(=O)(=O)n1c(N)nc2ccc(/C(=N/O)c3ccccc3)cc21 | HeLa | TYPE 9 | cytopathic effect | 0.03–0.06 µg/mL
COc1cc(O)c(CC=C(C)C)c2c1C(=O)CC(c1ccc(O)cc1)O2 | VERO | TYPE 14 | cytopathic effect | 6.6 µg/mL
COc1ccc(N2CCN(c3cccc(C)c3)CC2)nn1 | HeLa | TYPE 9 | cytopathic effect | 0.005 µg/mL
Cc1cc(CCCOc2c(C)cc(-c3nnn(C)n3)cc2C)on1 | HELA-OHIO | TYPE 1A | plaque count | 0.11 µM
Nc1nccc2c1ncn2[C@@H]1C[C@H](CO)[C@@H](O)[C@H]1O | WI-38 | TYPE 1A | cytopathic effect | >100 µg/mL
Clc1ccc(C2CCc3ccccc3O2)c(Cl)c1 | HeLa | TYPE 2 | cytopathic effect | 0.12–0.25 µg/mL
CC(=O)N[C@@H](CS)C(=O)O | HeLa |  | cytopathic effect | >50 µM
CCOc1cc(O)c(C(=O)NCc2ccc(NC)cc2)c(OC)c1 | HeLa | TYPE 2 | cytopathic effect | 0.006 µg/mL
O=c1c2ccccc2ccc2ccccc12 | HELA-H1 | TYPE 16 | cytopathic effect | 10 µM
CC(C)S(=O)(=O)n1c(N)nc2ccc(/C(=N/O)c3ccccc3)cc21 | HeLa | Serotype 48 | plaque count | 0.03 µg/mL

Repeating the final 4 entries:

CC(=O)N[C@@H](CS)C(=O)O ; cells: HeLa ; method: cytopathic effect ; value: >50 µM
CCOc1cc(O)c(C(=O)NCc2ccc(NC)cc2)c(OC)c1 ; cells: HeLa ; strain or isolate: TYPE 2 ; method: cytopathic effect ; value: 0.006 µg/mL
O=c1c2ccccc2ccc2ccccc12 ; cells: HELA-H1 ; strain or isolate: TYPE 16 ; method: cytopathic effect ; value: 10 µM
CC(C)S(=O)(=O)n1c(N)nc2ccc(/C(=N/O)c3ccccc3)cc21 ; cells: HeLa ; strain or isolate: Serotype 48 ; method: plaque count ; value: 0.03 µg/mL

ECn: concentration that inhibits the pathogen or its effect by n%. An empty or dashed field is not shown. a–b is a range or a potency band.